Data published in patent US5552405A, “Substituted pyrrolidine derivatives as HIV protease inhibitors” (Bio-Mega/Boehringer Ingelheim Research, Inc., priority 1995, dated 1996).
The match of structure and compound is tentative.

Molecular target: HIV protease (Human immunodeficiency virus type 1 group M subtype B, UniProt P04585)
Assay: Recombinant HIV Protease HPLC Assay
Conditions: read-out: IC50, concentration of the test compound which causes a 50% inhibition of the HIV-protease; recombinant HIV protease expressed in E. coli; substrate VSFNFPQITL-NH2; pH 5.5; 37°, 30 min
Description: The procedure is based on the capacity of the test compound to inhibit enzymatic cleavage by HIV protease of a decapeptide (the substratel having an amino acid sequence which includes a known HIV protease cleavage site of a HIV polyprotein; see H. G. Krausslich et al., Proc. Natl. Acad. Sci. U.S.A., 86, 807 (1989). Details of this assay together with the results obtained for exemplified compounds of formula 1 are described in the examples hereinafter.
Enzyme: HIV protease was expressed in E. coli {construct pBRT1 prt^+, see W. G. Farmerie et al., Science, 236, 305 (1987)}, according to the following protocol: Unless stated otherwise, all solutions are aqueous solutions.
E. coli cells containing the pBRT1 prt^+ plasmid were used to inoculate a seed culture media composed of Luria-Bertani Broth containing 100 μg/mL of ampicillin. Flasks were incubated at 37° under agitation for 17 h. Production flasks containing sterile M9 broth, supplemented with 100 μg/mL of ampicillin, were inoculated at a level of 1% (v/v) using the seed culture described above. Total volume in each production flask was 500 mL in a 2 L Erlenmeyer flask. Flasks were incubated at 37° under agitation until a cell concentration corresponding to an optical density (λ=540 μm) of 0.6 was reached (no dilution). This time span was routinely 3-4 h. […]

CC(C)[C@H](NC(=O)OCc1ccccc1)C(=O)N[C@@H](Cc1ccccc1)[C@H](O)CN1C[C@@H](OCc2ccccc2)C[C@H]1C(=O)NC(C)(C)C
IC50: 150 nM
